Assay results reported in patent US7402314B2, “In vivo activation of tumor-specific cytotoxic T cells” (The Scripps Research Institute, priority 1995, dated 2008).

Chains of the proteins cited; added tags and fusions are not shown. Lines headed by an entry give the natural chain unless they say otherwise; changes in a name come on top.
UniProt P01901: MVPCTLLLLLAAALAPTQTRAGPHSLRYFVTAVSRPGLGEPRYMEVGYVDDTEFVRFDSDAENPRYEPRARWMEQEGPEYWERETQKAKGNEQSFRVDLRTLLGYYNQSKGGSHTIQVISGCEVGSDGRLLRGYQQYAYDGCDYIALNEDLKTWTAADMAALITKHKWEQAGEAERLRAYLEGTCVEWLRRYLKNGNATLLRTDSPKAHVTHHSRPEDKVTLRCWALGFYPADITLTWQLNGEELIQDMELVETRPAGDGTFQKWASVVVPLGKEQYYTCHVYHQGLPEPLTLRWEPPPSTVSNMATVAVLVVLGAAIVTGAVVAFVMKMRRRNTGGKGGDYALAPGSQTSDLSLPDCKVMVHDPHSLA
UniProt P04439: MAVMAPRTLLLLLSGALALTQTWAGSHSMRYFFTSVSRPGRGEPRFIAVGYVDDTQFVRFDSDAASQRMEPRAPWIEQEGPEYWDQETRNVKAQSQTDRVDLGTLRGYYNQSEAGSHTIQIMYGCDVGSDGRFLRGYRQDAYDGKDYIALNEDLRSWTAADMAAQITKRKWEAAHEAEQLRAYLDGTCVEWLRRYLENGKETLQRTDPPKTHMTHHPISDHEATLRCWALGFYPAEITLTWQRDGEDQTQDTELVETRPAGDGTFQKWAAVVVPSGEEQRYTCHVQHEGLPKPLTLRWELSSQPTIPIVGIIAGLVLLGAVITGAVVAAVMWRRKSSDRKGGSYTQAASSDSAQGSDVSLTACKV

Molecular target: A2.1/K^b (UniProt P01901+P04439, D140Y/D185E/D98H/E176V/G131W/I119V/I121R/I166T/N151K/N90K/Q86G/Q94H/R138H/R169H)
Experiment: Binding inhibition assay (competition with influenza A-specific peptide, lysis by influenza A-specific CTL clone 12)
Design: species or system human-mouse chimeric
Conditions: 10 μg test peptide, 0.1 μg influenza A-specific peptide; E:T=0.3:1; FIG. 1

Sequence: ASNENMETM
- binding of test peptide to A2.1/K^b (percent specific lysis of EA2/K^b targets by influenza A-specific CTL): highest percent specific lysis

Sequence: RGYVYQGL
- binding of test peptide to A2.1/K^b (percent specific lysis of EA2/K^b targets by influenza A-specific CTL): highest percent specific lysis
